Measured values from several laboratories, pooled; numbers as filed in NIAID ChemDB.

Common to all: toxicity to cultured cells; cell line: HepG2.2.15; measure: CC50

Conditions beyond the fields shown may differ between rows.

structure | read by | result
CC(=O)[C@]1(O)CC[C@@]2(O)[C@]1(C)[C@H](OC(=O)/C=C(\C)C(C)C)CC1[C@@]3(C)CC[C@H](OC(=O)CCCC(=O)O)CC3=CC[C@]12O |  | >310 µM
Nc1nc(=O)n([C@@H]2CS[C@H](CO)O2)cc1F |  | 292 µM
O=c1[nH]cnc2c1ncn2[C@H]1CC[C@@H](CO)O1 |  | 233 µM
CO[C@@H]1C[C@H]2C(C)(C)CCC[C@]2(C)C2=C1C(O)=C(C(C)C)C(=O)C2=O | sulforhodamine | 60 µg/mL
C=C1CC[C@@H](O)[C@]2(C)CC[C@@H](C(C)C)[C@H](O)[C@@H]12 | MTT | 2080 µM
COC(=O)C1(O)C[C@H](O)C(OC(=O)/C=C/c2ccc(O)c(O)c2)[C@@H](O)C1 | MTT | 1970 µM
Cc1ccc(/C=C/C=C/C(=O)[Se]c2ccccc2)cc1 | MTT | >100 µM
O=c1cc(-c2ccc(O)c(-c3c(O)cc4oc(-c5ccc(O)cc5)cc(=O)c4c3O)c2)oc2cc(O)cc(O)c12 |  | >38 µM
O[N+](CCc1c[nH]c2ccccc12)(CC1CC1)CC1CC1 | MTT | >100 µM
CCCCCCCCCCCCNc1nc(=O)c2ncn([C@@H]3O[C@H](CO)[C@@H](O)[C@H]3O)c2c(=O)[nH]1 |  | 88 µM
CCOC(=O)/C=C/c1ccc(O)cc1 | MTT | 3260 µM
C[N+](C)(O)CCc1c[nH]c2ccc(O)cc12 | MTT | >25 µM
O=c1ccn([C@H]2CC[C@@H](CO)O2)c(=O)[nH]1 |  | 53 µM
CCOC(=O)c1ccc(O)cc1 | MTT | 4620 µM
O[N+](CCc1c[nH]c2ccccc12)(Cc1ccccc1)Cc1ccccc1 | MTT | >100 µM
O=c1[nH]cc(F)c(=O)[nH]1 |  | 10 µg/mL
Nc1nc(=O)n([C@H]2C[C@H](F)[C@@H](CO)O2)cc1Cl |  | 338 µM
O=C(/C=C/C=C/c1ccc([N+](=O)[O-])cc1)[Se]c1ccccc1 | MTT | >100 µM
O=C(/C=C/c1ccc(O)c(O)c1)O[C@@H]1[C@H](O)C[C@@](O)(C(=O)O)C[C@H]1OC(=O)/C=C/c1ccc(O)c(O)c1 | MTT | >1558 µM
C[C@H]1O[C@@H](O[C@H]2CC[C@@]3(C)[C@@H](CC[C@]4(C)[C@@H]3C=C[C@]35OC[C@@]6(CCC(C)(C)C[C@H]63)[C@@H](O)C[C@]54C)[C@]2(C)CO)[C@H](O)[C@@H](O[C@@H]2O[C@H](CO)[C@@H](O)[C@H](O)[C@H]2O)[C@H]1O |  | >40 µg/mL
Nc1ncnc2c1ncn2CCOCP(=O)(O)O |  | 425 µM
COC(=O)[C@]1(O)C[C@H](OC(=O)/C=C/c2ccc(O)c(O)c2)[C@@H](O)[C@@H](O)C1 | MTT | 2920 µM
O=c1ccc2ccc(O)cc2o1 | MTT | 489 µM
Nc1nc2c(ncn2[C@H]2CC[C@@H](CO)O2)c(=O)[nH]1 |  | 197 µM
CC(C)C1=C(O)C2=C(C(=O)C1=O)[C@@]1(C)CCCC(C)(C)C1C[C@H]2O | sulforhodamine | 30 µg/mL
CC(=O)Oc1ccc([C@@H]2CC(=O)c3c(cc(OC(C)=O)c(-c4c(OC(C)=O)cc(OC(C)=O)c5c4O[C@H](c4ccc(OC(C)=O)cc4)CC5=O)c3OC(C)=O)O2)cc1 |  | 20 µM
Nc1nc(=O)n([C@@H]2O[C@H](CO)[C@@H](O)[C@@H]2F)cc1I |  | 207 µM
CO[C@@H]1[C@H](OP(O)(=S)OC[C@H]2O[C@@H](n3cnc4c(N)ncnc43)C[C@@H]2O)[C@@H](CO)O[C@H]1n1ccc(=O)[nH]c1=O |  | >300 µM
Nc1nc(=O)c2ncn(COCCOCP)c2c(=O)[nH]1 |  | >100 µM
COc1cc2oc(=O)ccc2cc1O | MTT | 1630 µM
Nc1ncnc2c1ncn2[C@@H]1O[C@H](CO)[C@@H](O)[C@@H]1O |  | 191 µM
COc1cc([C@H]2c3cc(O)c(OC)cc3C[C@@H](CO)[C@@H]2CO)ccc1O | MTT | 201 µM
CC(=O)Oc1ccc(-c2cc(=O)c3c(OC(C)=O)c(-c4cc(-c5cc(=O)c6c(OC(C)=O)cc(OC(C)=O)cc6o5)ccc4OC(C)=O)c(OC(C)=O)cc3o2)cc1 |  | 263 µM
Nc1nc(=O)c2ncn(CCOCP(=O)(O)O)c2c(=O)[nH]1 |  | >100 µM
O=C(/C=C/c1ccc(O)cc1)[Se]c1ccccc1 | MTT | >100 µM
COC(=O)[C@]1(O)C[C@@H](O)[C@@H](O)[C@H](OC(=O)/C=C/c2ccc(O)c(O)c2)C1 | MTT | >1680 µM
Nc1ncnc2c1ncn2[C@H]1CC[C@@H](CO)O1 |  | 154 µM
O=c1ccc2cc(O)c(O)cc2o1 | MTT | >5450 µM
O=c1ccn([C@H]2C[C@H](F)[C@@H](CO)O2)c(=O)[nH]1 |  | 338 µM
O=C(/C=C/C=C/c1ccc(O)c(O)c1)[Se]c1ccccc1 | MTT | >100 µM
Nc1ccn([C@H]2CC[C@@H](CO)O2)c(=O)n1 |  | 493 µM

3 of the rows above, restated:

structure | read by | result
O=c1ccn([C@H]2CC[C@@H](CO)O2)c(=O)[nH]1 |  | 53 µM
CO[C@@H]1C[C@H]2C(C)(C)CCC[C@]2(C)C2=C1C(O)=C(C(C)C)C(=O)C2=O | sulforhodamine | 60 µg/mL
COC(=O)[C@]1(O)C[C@@H](O)[C@@H](O)[C@H](OC(=O)/C=C/c2ccc(O)c(O)c2)C1 | MTT | >1680 µM

Blank or dashed fields: not listed here. CCn: concentration that lowers growth or viability of the cells by n%.